The exact form of at least one protein or probe is not confirmed. At least one verdict rests on a figure or table, not on a statement of the authors.
Target: T1, BfmR (Pseudomonas aeruginosa PAO1) (UniProt Q9HWS7)
T1 sequence: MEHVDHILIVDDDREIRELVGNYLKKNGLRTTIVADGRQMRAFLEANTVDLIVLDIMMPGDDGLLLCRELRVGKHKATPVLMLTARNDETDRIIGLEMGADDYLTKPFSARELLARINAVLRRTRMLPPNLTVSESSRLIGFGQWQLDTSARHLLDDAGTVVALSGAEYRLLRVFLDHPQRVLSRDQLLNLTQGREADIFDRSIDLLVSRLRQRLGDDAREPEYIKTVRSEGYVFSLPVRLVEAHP
Experiment: EMSA
Conditions: 10 uM acetyl phosphate (binding enhanced); recombinant protein; residues 1-246; probe letters rebuilt from the primers and the genome

CATCGGATTCCTGCGAATACTACTGATAACGATAATCTCTATCATTTACTCCATTTTTACATTTACATACACTTGCCCCGCCGCGAATTCCTACGCCGGTTTCCCACATAAACAAGAAACGC (double strand) [PfpvB]
binding result: binds

Source: article PMC10924945
